Values quoted from earlier work in patent publication US20160367620A1, “GLUTATHIONE” (priority 2015, published 2016).

System: human immunodeficiency virus (HIV) expression
Details: U1 cells; cited from earlier work

glutathione ester [GSE]
cytotoxic or cytostatic effects: absence of cytotoxic or cytostatic effects
